We go through 10 molecules from paper PMC6669600 (Viruses, 2019).

Where two headings read alike, the source gives them in different places.

For orientation: IC50 means the midpoint of a concentration-inhibition curve.

This test relates to HIV-1NL4-3 pseudovirus. Format: cell-based. The conditions noted are these: HIV-1NL4-3(D36G) pseudovirus entry, TZM-bl cells, triplicate, repeated three times, mean ± SD, read-out: Inhibition (IC50, nM) NL4-3 entry.

As to `CC[C@H](C)[C@H](NC(=O)[C@H](CCCCN)NC(=O)[C@H](CCCCN)NC(=O)[C@H](CC(=O)O)NC(=O)[C@H](Cc1c[nH]c2ccccc12)NC(=O)[C@H](CCC(=O)O)NC(=O)[C@H](CCC(=O)O)NC(=O)[C@H](Cc1c[nH]c2ccccc12)NC(C)=O)C(=O)N[C@@H](CCC(=O)O)C(=O)N[C@@H](CCC(=O)O)C(=O)N[C@@H](Cc1ccc(O)cc1)C(=O)N[C@H](C(=O)N[C@@H](CCCCN)C(=O)N[C@@H](CCCCN)C(=O)N[C@H](C(=O)N[C@@H](CCC(=O)O)C(=O)N[C@@H](CCC(=O)O)C(=O)N[C@@H](CC(C)C)C(N)=O)[C@@H](C)CC)[C@@H](C)O` [SC18EK], the IC50 was over 2000 nM.

For `CC[C@H](C)[C@H](NC(=O)[C@H](CC(C)C)NC(=O)[C@H](CCC(=O)O)NC(=O)[C@H](CCC(=O)O)NC(=O)[C@@H](NC(=O)[C@H](CCCCN)NC(=O)[C@H](CCCCN)NC(=O)[C@@H](NC(=O)[C@H](Cc1ccc(O)cc1)NC(=O)[C@H](CCC(=O)O)NC(=O)[C@H](CCC(=O)O)NC(=O)[C@@H](NC(=O)[C@H](CCCCN)NC(=O)[C@H](CCCCN)NC(=O)[C@H](CC(=O)O)NC(=O)[C@H](Cc1c[nH]c2ccccc12)NC(=O)[C@H](CCC(=O)O)NC(=O)[C@H](CCC(=O)O)NC(=O)[C@H](Cc1c[nH]c2ccccc12)NC(C)=O)[C@@H](C)CC)[C@@H](C)O)[C@@H](C)CC)C(=O)N[C@@H](CCCCN)C(=O)N[C@@H](CCCCN)C(=O)N[C@@H](CO)C(=O)N[C@@H](CCC(=O)O)C(=O)N[C@@H](CCC(=O)O)C(=O)N[C@@H](CCC(N)=O)C(=O)N[C@@H](CCC(N)=O)C(=O)N[C@@H](CCCCN)C(=O)N[C@@H](CCCCN)C(=O)N[C@@H](CC(N)=O)C(=O)N[C@@H](CCC(=O)O)C(=O)N[C@@H](CCCCN)C(=O)N[C@@H](CCC(=O)O)C(=O)N[C@@H](CC(C)C)C(N)=O` [SC33EK], the IC50 (SD) was found to be 1.1 ± 0.1 nM.

With `CC[C@H](C)[C@H](NC(=O)[C@H](CC(C)C)NC(=O)[C@H](CCC(=O)O)NC(=O)[C@H](CCC(=O)O)NC(=O)[C@@H](NC(=O)[C@H](CCCCN)NC(=O)[C@H](CCCCN)NC(=O)[C@@H](NC(=O)[C@H](Cc1ccc(O)cc1)NC(=O)[C@H](CCC(=O)O)NC(=O)[C@H](CCC(=O)O)NC(=O)[C@@H](NC(=O)[C@H](CCCCN)NC(=O)[C@H](CCCCN)NC(=O)[C@H](CC(=O)O)NC(=O)[C@H](Cc1c[nH]c2ccccc12)NC(=O)[C@H](CCC(=O)O)NC(=O)[C@H](CCC(=O)O)NC(=O)[C@H](Cc1c[nH]c2ccccc12)NC(=O)[C@@H](NC(=O)[C@H](CCSC)NC(C)=O)[C@@H](C)O)[C@@H](C)CC)[C@@H](C)O)[C@@H](C)CC)C(=O)N[C@@H](CCCCN)C(=O)N[C@@H](CCCCN)C(=O)N[C@@H](CO)C(=O)N[C@@H](CCC(=O)O)C(=O)N[C@@H](CCC(=O)O)C(=O)N[C@@H](CCC(N)=O)C(=O)N[C@@H](CCC(N)=O)C(=O)N[C@@H](CCCCN)C(=O)N[C@@H](CCCCN)C(=O)N[C@@H](CC(N)=O)C(=O)N[C@@H](CCC(=O)O)C(=O)N[C@@H](CCCCN)C(=O)N[C@@H](CCC(=O)O)C(=O)N[C@@H](CC(C)C)C(=O)N[C@@H](CCCCN)C(N)=O` [MT-SC34EK], the IC50 (SD) was determined as 1 ± 0.2 nM.

For `CC[C@H](C)[C@H](NC(=O)[C@H](CC(C)C)NC(=O)[C@H](CCC(=O)O)NC(=O)[C@H](CCC(=O)O)NC(=O)[C@@H](NC(=O)[C@H](CCCCN)NC(=O)[C@H](CCCCN)NC(=O)[C@@H](NC(=O)[C@H](Cc1ccc(O)cc1)NC(=O)[C@H](CCC(=O)O)NC(=O)[C@H](CCC(=O)O)NC(=O)[C@@H](NC(=O)[C@H](CCCCN)NC(=O)[C@H](CCCCN)NC(=O)[C@H](CC(=O)O)NC(=O)[C@H](Cc1c[nH]c2ccccc12)NC(=O)[C@H](CCC(=O)O)NC(=O)[C@H](CCC(=O)O)NC(=O)[C@H](Cc1c[nH]c2ccccc12)NC(C)=O)[C@@H](C)CC)[C@@H](C)O)[C@@H](C)CC)C(=O)N[C@@H](CCCCN)C(=O)N[C@@H](CCCCN)C(=O)N[C@@H](CO)C(N)=O` [SC22EK], the IC50 (SD) worked out at 66.9 ± 15.9 nM.

On to `CC[C@H](C)[C@H](NC(=O)[C@H](CC(C)C)NC(=O)[C@H](CCC(=O)O)NC(=O)[C@H](CCC(=O)O)NC(=O)[C@@H](NC(=O)[C@H](CCCCN)NC(=O)[C@H](CCCCN)NC(=O)[C@@H](NC(=O)[C@H](Cc1ccc(O)cc1)NC(=O)[C@H](CCC(=O)O)NC(=O)[C@H](CCC(=O)O)NC(=O)[C@@H](NC(=O)[C@H](CCCCN)NC(=O)[C@H](CCCCN)NC(=O)[C@H](CC(=O)O)NC(=O)[C@H](Cc1c[nH]c2ccccc12)NC(=O)[C@H](CCC(=O)O)NC(=O)[C@H](CCC(=O)O)NC(=O)[C@H](Cc1c[nH]c2ccccc12)NC(C)=O)[C@@H](C)CC)[C@@H](C)O)[C@@H](C)CC)C(=O)N[C@@H](CCCCN)C(=O)N[C@@H](CCCCN)C(=O)N[C@@H](CO)C(=O)N[C@@H](CCC(=O)O)C(=O)N[C@@H](CCC(=O)O)C(=O)N[C@@H](CCC(N)=O)C(=O)N[C@@H](CCC(N)=O)C(=O)N[C@@H](CCCCN)C(=O)N[C@@H](CCCCN)C(=O)N[C@@H](CC(N)=O)C(=O)N[C@@H](CCC(=O)O)C(=O)N[C@@H](CCCCN)C(N)=O` [SC31EK], for which, under “SD”, the IC50 came out at 1.3 ± 0.2 nM.

For the molecule `CC[C@H](C)[C@H](NC(=O)[C@H](CC(C)C)NC(=O)[C@H](CCC(=O)O)NC(=O)[C@H](CCC(=O)O)NC(=O)[C@@H](NC(=O)[C@H](CCCCN)NC(=O)[C@H](CCCCN)NC(=O)[C@@H](NC(=O)[C@H](Cc1ccc(O)cc1)NC(=O)[C@H](CCC(=O)O)NC(=O)[C@H](CCC(=O)O)NC(=O)[C@@H](NC(=O)[C@H](CCCCN)NC(=O)[C@H](CCCCN)NC(=O)[C@H](CC(=O)O)NC(=O)[C@H](Cc1c[nH]c2ccccc12)NC(=O)[C@H](CCC(=O)O)NC(=O)[C@H](CCC(=O)O)NC(=O)[C@H](Cc1c[nH]c2ccccc12)NC(C)=O)[C@@H](C)CC)[C@@H](C)O)[C@@H](C)CC)C(=O)N[C@@H](CCCCN)C(=O)N[C@@H](CCCCN)C(=O)N[C@@H](CO)C(=O)N[C@@H](CCC(=O)O)C(=O)N[C@@H](CCC(=O)O)C(=O)N[C@@H](CCC(N)=O)C(=O)N[C@@H](CCC(N)=O)C(=O)N[C@@H](CCCCN)C(=O)N[C@@H](CCCCN)C(=O)N[C@@H](CC(N)=O)C(N)=O` [SC29EK, reference compound], the IC50 is 1.2 nM.

Turning to `CC[C@H](C)[C@H](NC(=O)[C@H](CC(C)C)NC(=O)[C@H](CCC(=O)O)NC(=O)[C@H](CCC(=O)O)NC(=O)[C@@H](NC(=O)[C@H](CCCCN)NC(=O)[C@H](CCCCN)NC(=O)[C@@H](NC(=O)[C@H](Cc1ccc(O)cc1)NC(=O)[C@H](CCC(=O)O)NC(=O)[C@H](CCC(=O)O)NC(=O)[C@@H](NC(=O)[C@H](CCCCN)NC(=O)[C@H](CCCCN)NC(=O)[C@H](CC(=O)O)NC(=O)[C@H](Cc1c[nH]c2ccccc12)NC(=O)[C@H](CCC(=O)O)NC(=O)[C@H](CCC(=O)O)NC(=O)[C@H](Cc1c[nH]c2ccccc12)NC(=O)[C@@H](NC(=O)[C@H](CCSC)NC(C)=O)[C@@H](C)O)[C@@H](C)CC)[C@@H](C)O)[C@@H](C)CC)C(=O)N[C@@H](CCCCN)C(=O)N[C@@H](CCCCN)C(=O)N[C@@H](CO)C(=O)N[C@@H](CCC(=O)O)C(=O)N[C@@H](CCC(=O)O)C(=O)N[C@@H](CCC(N)=O)C(=O)N[C@@H](CCC(N)=O)C(=O)N[C@@H](CCCCN)C(=O)N[C@@H](CCCCN)C(=O)N[C@@H](CC(N)=O)C(=O)N[C@@H](CCC(=O)O)C(N)=O` [MT-SC30EK], the IC50 (SD) stood at 0.8 ± 0.1 nM.

Take `CC[C@H](C)[C@H](NC(=O)[C@H](CC(C)C)NC(=O)[C@H](CCC(=O)O)NC(=O)[C@H](CCC(=O)O)NC(=O)[C@@H](NC(=O)[C@H](CCCCN)NC(=O)[C@H](CCCCN)NC(=O)[C@@H](NC(=O)[C@H](Cc1ccc(O)cc1)NC(=O)[C@H](CCC(=O)O)NC(=O)[C@H](CCC(=O)O)NC(=O)[C@@H](NC(=O)[C@H](CCCCN)NC(=O)[C@H](CCCCN)NC(=O)[C@H](CC(=O)O)NC(=O)[C@H](Cc1c[nH]c2ccccc12)NC(=O)[C@H](CCC(=O)O)NC(=O)[C@H](CCC(=O)O)NC(=O)[C@H](Cc1c[nH]c2ccccc12)NC(C)=O)[C@@H](C)CC)[C@@H](C)O)[C@@H](C)CC)C(N)=O` [SC19EK]: the IC50 (SD) was 70.7 ± 9 nM.

With `CC[C@H](C)[C@H](NC(=O)[C@H](CC(C)C)NC(=O)[C@H](CCC(=O)O)NC(=O)[C@H](CCC(=O)O)NC(=O)[C@@H](NC(=O)[C@H](CCCCN)NC(=O)[C@H](CCCCN)NC(=O)[C@@H](NC(=O)[C@H](Cc1ccc(O)cc1)NC(=O)[C@H](CCC(=O)O)NC(=O)[C@H](CCC(=O)O)NC(=O)[C@@H](NC(=O)[C@H](CCCCN)NC(=O)[C@H](CCCCN)NC(=O)[C@H](CC(=O)O)NC(=O)[C@H](Cc1c[nH]c2ccccc12)NC(=O)[C@H](CCC(=O)O)NC(=O)[C@H](CCC(=O)O)NC(=O)[C@H](Cc1c[nH]c2ccccc12)NC(=O)[C@@H](NC(=O)[C@H](CCSC)NC(C)=O)[C@@H](C)O)[C@@H](C)CC)[C@@H](C)O)[C@@H](C)CC)C(=O)N[C@@H](CCCCN)C(=O)N[C@@H](CCCCN)C(=O)N[C@@H](CO)C(=O)N[C@@H](CCC(=O)O)C(=O)N[C@@H](CCC(=O)O)C(=O)N[C@@H](CCC(N)=O)C(=O)N[C@@H](CCC(N)=O)C(=O)N[C@@H](CCCCN)C(=O)N[C@@H](CCCCN)C(=O)N[C@@H](CC(N)=O)C(=O)N[C@@H](CCC(=O)O)C(=O)N[C@@H](CCCCN)C(N)=O` [MT-SC31EK], the IC50 (SD) worked out at 1.3 ± 0.1 nM.

Regarding `CC[C@H](C)[C@H](NC(=O)[C@H](CCC(N)=O)NC(=O)[C@H](CCC(N)=O)NC(=O)[C@H](CC(N)=O)NC(=O)[C@H](CCC(N)=O)NC(=O)[C@H](CO)NC(=O)[C@H](CCCCN)NC(=O)[C@H](CCCCN)NC(=O)[C@@H](NC(=O)[C@H](CC(C)C)NC(=O)[C@H](CCC(=O)O)NC(=O)[C@H](CCC(=O)O)NC(=O)[C@@H](NC(=O)[C@H](CCCCN)NC(=O)[C@H](CCCCN)NC(=O)[C@@H](NC(=O)[C@H](Cc1ccc(O)cc1)NC(=O)[C@H](CCC(=O)O)NC(=O)[C@H](CCC(=O)O)NC(=O)[C@@H](NC(=O)[C@H](CCCCN)NC(=O)[C@H](CCCNC(=N)N)NC(=O)[C@H](CC(=O)O)NC(=O)[C@H](Cc1c[nH]c2ccccc12)NC(=O)[C@H](CCC(=O)O)NC(=O)[C@H](CCC(=O)O)NC(=O)[C@H](Cc1c[nH]c2ccccc12)NC(=O)[C@@H](NC(=O)[C@H](CCSC)NC(C)=O)[C@@H](C)O)[C@@H](C)CC)[C@@H](C)O)[C@@H](C)CC)[C@@H](C)CC)C(=O)N[C@@H](CC(=O)O)C(=O)N[C@@H](CC(C)C)C(N)=O` [MT-WQ-IDL, reference compound], the half-inhibitory concentration (IC50) (SD) was found to be 0.9 ± 0.1 nM.
